Data set [1] has as its target ManR (VC1825) (Vibrio cholerae N16961) (UniProt Q9KR22). Briefly: EMSA. Particulars: recombinant protein, probe letters rebuilt from the primers and the genome.
Data set [2] deals with CRP (UniProt O34015). Put plainly: EMSA. Particulars: 0.2 mM cAMP; recombinant protein; probe letters rebuilt from the primers and the genome.

For at least one entry, the source does not settle the construct or the ends of the probe.

Turning to “ATCAAATATCATATGTAAACCCTCACTTCGTCATCGCACTTTTATTAACGTCAGATATACCCCGAATGCCATTGAGTCTCTTTGAGCAACATCACACTCAAGACAGAATGATACAATAATCCAGTTTTAACACCAATTCTCTAGCACAAACCTCCACCATGAATAACAACAAACATAATATAACTAAATGAAAATTAATGAGCTAAACCTACAATCATTACTTAAAATTGGCCTCACTACCCCAATAGACGCTACGAGATCTAAATCACACCAAACCAATAGAGTTACAATCCTCCAGTGAATGTTTTATTTCTGCACTAATAAGAAAAATAAAAAAATTAAAGAATAACTCTGACATAAAAATAAAATGTACAGAGGTCTCTATGATCAACCAATTGA (double strand) [399-bp manP probe (VC1825-manP intergenic region)]”, the binding result is recorded as “binds” in data set [1] (two complexes, 0, 60, 120 ng ManR) and “binds” in data set [2].

For “CGCAACAATTTTCATGGAAATCCCTCATTGTTATTTTTGCGGCGATAGTAACATAGCGCTTGGCAAATACTCCGTTTTCGGCCAAGACCCAGTTCACAGTTCAAATCGAATGTTACATTAATCCAGTTATTGCATCTTTTGTCCTGTGTCTTGAAAGAGTATCGCTCGTTACTCTAGCCACGCGCGTACGCGAGGCGCATCGGGATGGCAATGCCAATTCAAACAACAGTAAGGTAAAACAATTGTGGATATTACCCA (double strand) [VC1822-VC1823 intergenic probe]”, in data set [1] (one complex, 0-90 ng ManR), the binding result is recorded as “binds”.

Regarding “GTCAGATATACCCCGAATGCCATTGAGTCTCTTTGAGCAACATCACACTCAAGACAGAATGATACAATAATCCAGTTTTAACACCAATTCTCTAGCACAA (double strand) [100-bp probe 2]”, the binding result in data set [1] (120 ng ManR) is reported as “binds”.

The values above are taken from article PMC9392796, “A mannose-sensing AraC-type transcriptional activator regulates cell–cell aggregation of Vibrio cholerae” (NPJ Biofilms and Microbiomes, 2022).
